Results of unrelated studies side by side (data: NIAID ChemDB).

Shared fields: tests in culture; organism: Herpes simplex virus 1; cell line: HEL; read-out: EC50

Conditions beyond the fields shown may differ between rows. ECn is the concentration giving n% inhibition of infection, replication or growth. An empty or dashed field is not shown.

smiles | strain or isolate | changes | method | result
Nc1nc2c(ncn2COCCO)c(=O)[nH]1 | KOS |  | cytopathic effect | 0.2 µg/mL
CC(C)NS(=O)(=O)c1ccccc1C(=O)N/N=C/c1ccc(Br)cc1 | KOS | TK-deficient acyclovir-resistant | cytopathic effect | >100 µM
Cc1cn([C@H]2C=C[C@@H](OC(C(=O)O)P(=O)(O)O)C2)c(=O)[nH]c1=O | KOS | TK-deficient acyclovir-resistant | cytopathic effect | >250 µM
O=C(O)P(=O)(O)O | HU-3 |  | cytopathic effect | 150 µM
O=c1[nH]c(=O)n([C@@H]2O[C@H](CO)[C@@H](O)[C@@H]2O)cc1/C=C/Br | WT-34 |  | plaque count | 0.024 µM
CCOC(=O)C1=CSc2nnc(-c3cn(-c4ccccc4)nc3-c3ccccc3)n2N=C1N | KOS |  | cytopathic effect | >16 µg/mL
CCCCc1cc2cnc(=O)[nH]c2o1 | KOS |  | cytopathic effect | >200 µM
O=c1c2ncn(COCCO)c2nc2[nH]c(-c3ccc(F)cc3)cn12 | F |  | cytopathic effect | >16 µg/mL
Cc1cn([C@@]2(C)C[C@H](O)[C@@H](CO)S2)c(=O)[nH]c1=O |  |  | cytopathic effect | 4 µg/mL
Nc1nc2c(ncn2COCCO)c(=O)[nH]1 | KOS | TK-deficient acyclovir-resistant | cytopathic effect | 50 µM
S=c1[nH]n2c(-c3cn(-c4ccccc4)nc3-c3ccccc3)nnc2s1 | KOS (TK-) |  | cytopathic effect | >80 µg/mL
Nc1nc2c(ncn2COCCO)c(=O)[nH]1 | VR-3 |  | plaque count | 0.39 µM
S=c1[nH]nc(-c2cn(-c3ccccc3)nc2-c2ccccc2)o1 | KOS |  | cytopathic effect | >16 µg/mL
Cc1cn([C@@]2(C=O)C[C@H](O)[C@@H](CO)S2)c(=O)[nH]c1=O |  |  | cytopathic effect | 20 µg/mL
CC(C)NS(=O)(=O)c1ccccc1C(=O)N/N=C/c1ccc(-c2cccs2)cc1 | KOS | TK-deficient acyclovir-resistant | cytopathic effect | >100 µM
O=c1[nH]n2c(-c3cn(-c4ccccc4)nc3-c3ccccc3)nnc2s1 | KOS (TK-) |  | cytopathic effect | >16 µg/mL
COc1ccc(-c2[nH]c3nc4c(ncn4COCCO)c(=O)n3c2C)cc1 | McIntyre |  | cytopathic effect | 1.92 µg/mL
CSc1nnc(-c2ccccc2S(=O)(=O)NC(C)C)o1 | KOS |  | cytopathic effect | >100 µM
CCCCCCCC/C=C/CCCCCCCC(=O)OCC(CO)OCn1cnc2c(=O)[nH]c(N)nc21 | HU-5 |  | cytopathic effect | 0.0005 µM
O=C(O)C(O[C@@H]1CC[C@H](n2cc(F)c(=O)[nH]c2=O)C1)P(=O)(O)O | KOS | TK-deficient acyclovir-resistant | cytopathic effect | >250 µM
O=c1c2ncn(COCCO)c2nc2[nH]c(-c3ccccc3)c(Cc3ccc(F)cc3)n12 | McIntyre |  | cytopathic effect | >16 µg/mL
O=C(O)CP(=O)(O)O | VR/TK- |  | plaque count | 118 µM
O=c1[nH]c(=O)n([C@H]2C[C@H](O)[C@@H](CO)O2)cc1/C=C/Br | HU-10 |  | cytopathic effect | 150 µM
Cc1ccc(/C=N/NC(=O)c2ccccc2S(=O)(=O)NC(C)C)cc1 | KOS |  | cytopathic effect | >100 µM
CCCCCC#Cc1cn(S(=O)(=O)c2ccc(C)cc2)c(=O)[nH]c1=O | KOS |  | cytopathic effect | >40 µM
CCOC(=O)C1Sc2nnc(-c3cn(-c4ccccc4)nc3-c3ccccc3)n2NC1=O | KOS (TK-) |  | cytopathic effect | >80 µg/mL
O=c1[nH]c(=O)n([C@@H]2O[C@H](CO)[C@@H](O)[C@@H]2O)cc1/C=C/Br | KOS |  | cytopathic effect | 0.01 µg/mL
Nc1nc(=O)n([C@@H]2CC[C@H](CO)O2)cc1F | VR-3 |  | plaque count | 3.7 µM
C/C(=N/Nc1nc(-c2ccc(C)cc2)cs1)c1ccc(NC(=O)CN2C(=O)c3ccccc3S2(=O)=O)cc1 | KOS |  | cytopathic effect | 20 µM
CCCCC#Cc1cn(S(=O)(=O)c2ccc(C)cc2)c(=O)[nH]c1=O | KOS |  | cytopathic effect | >40 µM
Cc1c(-c2ccc(C(F)(F)F)cc2)[nH]c2nc3c(ncn3COCCO)c(=O)n12 | TK- |  | cytopathic effect | >16 µg/mL

Repeating the final 3 entries:

C/C(=N/Nc1nc(-c2ccc(C)cc2)cs1)c1ccc(NC(=O)CN2C(=O)c3ccccc3S2(=O)=O)cc1 ; strain or isolate: KOS ; method: cytopathic effect ; result: 20 µM
CCCCC#Cc1cn(S(=O)(=O)c2ccc(C)cc2)c(=O)[nH]c1=O ; strain or isolate: KOS ; method: cytopathic effect ; result: >40 µM
Cc1c(-c2ccc(C(F)(F)F)cc2)[nH]c2nc3c(ncn3COCCO)c(=O)n12 ; strain or isolate: TK- ; method: cytopathic effect ; result: >16 µg/mL